Anti-infective test results gathered from many reports (values: NIAID ChemDB through PubChem).

All rows: cytotoxicity tests; cell line: MT-4; read-out: CC50

CCn: concentration that lowers growth or viability of the cells by n%. a–b is a range or a potency band. Neighbouring rows are from separate reports. An empty or dashed field is not shown.

smiles	method	value
Cc1cccc(N2C(=O)CSC2c2c(F)cccc2Cl)n1	-	31.9 µM
CCc1c(Cc2cc(C)cc(C)c2)n(COCC#Cc2cccc(CO[Si](c3ccccc3)(c3ccccc3)C(C)(C)C)c2)c(=O)[nH]c1=O	MTT	>100 µM
CC(C)Nc1nc(Nc2ccc(C#N)cc2F)nc(Oc2ccc3ccccc3c2Br)n1	-	>254 µM
CCOCn1c(CC2CCCc3ccccc32)c(CC)c(=O)[nH]c1=O	MTT	96 µM
CC1=C[C@H](Cn2cnc3c(=O)[nH]c(N)nc32)C[C@@H]1CO	MTT	>100 µg/mL
COc1cc2c(cc1Cc1cccc(Cl)c1F)c(=O)c(C(=O)O)cn2[C@H](CO)C(C)C	luminescence	3.091 µM
Cc1cn([C@H]2C[C@H](N=[N+]=[N-])[C@@H](COP(=O)(O)OCCS[C@@H]3O[C@H](CO)[C@@H](O)[C@H](O)[C@H]3O)O2)c(=O)[nH]c1=O	-	>10 µM
Nc1ccn([C@@H]2O[C@H](CO)[C@@H](F)[C@H]2O)c(=O)n1	-	43 µM
Cc1cn([C@@H]2O[C@H](CO)C3(OS(=O)(=O)C=C3N)[C@H]2O)c(=O)[nH]c1=O	-	>100 µg/mL
COc1cccc2c1c(/C(O)=C1\COC(=O)C1=O)cn2Cc1ccc(F)cc1	MTT	71.39 µM
Cc1cc(OCCN(C)C)ccc1NC(=O)COc1ccc(Cl)c(Oc2cc(Cl)cc(C#N)c2)c1	microscopy	>20 µM
O=C1c2ccccc2N(Cc2ccccc2)S(=O)(=O)N1Cc1ccc(Cl)cc1	-	37.6 µM
C#CCOCN1c2ccccc2C(=O)N(Cc2ccccc2)S1(=O)=O	-	26.2–29.6 µM
Cc1cc(C)cc(S(=O)(=O)c2c(C(=O)N[C@H]3CCN(Cc4cccnc4)C3)[nH]c3ccc(Cl)cc23)c1	MTT	22.75 µM
CCc1c(Cc2cc(C)cc(C)c2)n(COCC#Cc2cccs2)c(=O)[nH]c1=O	MTT	38 µM
C=CNc1nc(Nc2ccc(C#N)cc2F)nc(Oc2ccc3ccccc3c2)n1	-	229 µM
C=CCn1cc(COCn2c(Cc3cc(C)cc(C)c3)c(CC)c(=O)[nH]c2=O)nn1	MTT	>100 µM
CC(=O)OC1[C@]2(C)[C@@H]3[C@@H](C[C@@]1(OC(C)=O)[C@H](OC(C)=O)[C@H]1[C@@H](OC(=O)c4ccccc4)[C@@H](C)C[C@]1(O)[C@@H]2OC(C)=O)C(=O)C(C)(C)[C@H]3OC(C)=O	MTT	>100 µg/mL
O=C1c2ccccc2N(COCc2ccccc2)S(=O)(=O)N1COCc1ccccc1	-	22.3–23.7 µM
N#Cc1cc(Cl)cc(Oc2cc(OCc3[nH]nc4nc(N5CCNCC5)ccc34)ccc2Cl)c1	microscopy	>20 µM
CSCCC(OC(=O)[C@@H](N)c1ccccc1-c1c[nH]c2ccccc12)C(C)C	MTT	30 µM
N#C[C@]1(CO)O[C@@H](n2cnc3c(=O)[nH]c(N)nc32)C[C@@H]1O	-	>0.034 µM
Cc1nc2ccccc2c(-c2cc(F)c3c(c2C)CCCO3)c1[C@H](OC(C)(C)C)C(=O)O	luminescence	>10 µM
N#Cc1ccc(Nc2nc(N)nc(Oc3ccc4ccccc4c3)n2)c(F)c1	-	336 µM
CCc1c(Cc2cc(C)cc(C)c2)n(COCC#Cc2cc3ccccc3c3ccccc23)c(=O)[nH]c1=O	MTT	80 µM
Cc1cc(C)cc(S(=O)(=O)c2c(C(=O)NC3CNC3)[nH]c3ccc(Cl)cc23)c1	MTT	37.31 µM
Cc1cn([C@H]2C=C[C@@H](CO)O2)c(=O)[nH]c1=O	-	>100 µM
Nc1ncnc2c1ncn2[C@H]1C=C[C@@H](CO)O1	-	≥100 µM
CC#CCN1c2ccccc2C(=O)N(Cc2ccccc2)S1(=O)=O	-	60.1 µM
Cc1cc(C)cc(S(=O)(=O)c2c(C(=O)NCCn3ccc(=O)[nH]c3=O)[nH]c3ccc(Cl)cc23)c1	MTT	40.15 µM
CC(=O)OCC(=O)O[C@@H]1[C@H]2[C@@H](OC(=O)c3ccccc3)[C@@H](C)C[C@]2(O)[C@H](OC(C)=O)[C@]2(C)C(OC(C)=O)[C@@]1(OC(C)=O)C[C@H]1C(=O)C(C)(C)[C@@H](OC(C)=O)[C@@H]12	MTT	51 µg/mL
C=C(C)COCn1c(CC2CCCc3ccccc32)c(CC)c(=O)[nH]c1=O	MTT	40 µM
O=C1c2ccccc2N(Cc2ccccc2)S(=O)(=O)N1Cc1ccccc1	-	>125 µM
CSCC[C@H](C)OC(=O)[C@@H](NC(=O)Cc1c[nH]c2ccccc12)c1ccccc1-c1c[nH]c2ccccc12	MTT	12 µM
CNc1nc(Nc2ccc(C#N)cc2F)nc(Oc2ccc3ccccc3c2Br)n1	-	98.84 µM
CC(=O)O[C@@H]1[C@H]2[C@@H](OC(=O)c3ccccc3)[C@@H](C)C[C@]2(O)[C@H](OC(C)=O)[C@@]2(C)[C@@H]3CC(C)(C)C(=O)[C@]3(OC(C)=O)C[C@@]12C	MTT	49 µg/mL
CCNc1nc(Nc2ccc(C#N)cc2F)nc(Oc2ccc3ccccc3c2Cl)n1	-	>270 µM
O=c1[nH]cnc2c1ncn2[C@@H]1O[C@H](CO)[C@@H](F)[C@H]1O	-	>500 µM
N#Cc1cc(Cl)cc(Oc2cc(Cl)cc(OCC(=O)Nc3ccc4[nH]cnc4c3Cl)c2)c1	microscopy	>20 µM
O=C(/C=C/C1=CC2C=Cc3cc(O)c(O)cc3OC2C(O)=C1)OC(Cc1ccc(O)c(O)c1)C(=O)O	-	3.7–24.1 µg/mL
Cc1cc(C)cc(S(=O)(=O)c2c(C(=O)NC3CN(S(C)(=O)=O)C3)[nH]c3ccc(Cl)cc23)c1	MTT	>252 µM
O=C1c2ccccc2N(Cc2ccccc2)S(=O)(=O)N1COCc1ccccc1	-	35.8–45 µM
Cc1cn([C@H]2C[C@H](N=[N+]=[N-])[C@@H](COP(=O)(OCCSC(=O)C(C)(C)C)OCCSC(=O)C(C)(C)C)O2)c(=O)[nH]c1=O	-	>10 µM
Cc1cn([C@H]2C[C@H](N=[N+]=[N-])[C@@H](CO)O2)c(=O)[nH]c1=O	MTT	67 µM
CCNc1nc(Nc2ccc(C#N)cc2F)nc(Oc2ccc3ccccc3c2)n1	-	222 µM
O=C1c2ccccc2N(Cc2ccc(Cl)cc2)S(=O)(=O)N1Cc1ccccc1	-	≥250 µM
CSCC[C@H](OC(=O)[C@@H](N)c1ccccc1-c1c[nH]c2ccccc12)c1ccccc1	MTT	23 µM
CC(=O)OC1[C@@]2(OC(C)=O)CC3=C([C@H](OC(C)=O)C(C)(C)C3=O)[C@]1(C)[C@H](OC(C)=O)[C@@]1(O)C[C@H](C)[C@H](OC(=O)c3ccccc3)[C@@H]1[C@H]2OC(C)=O	MTT	>100 µg/mL
CSCC[C@H](C)OC(=O)[C@@H](N)c1ccccc1-c1c[nH]c2ccccc12	MTT	33 µM
CC(=O)OC[C@H]1O[C@@H](SCCOP(=O)(O)OC[C@H]2O[C@@H](n3cc(C)c(=O)[nH]c3=O)C[C@@H]2N=[N+]=[N-])[C@H](OC(C)=O)[C@@H](OC(C)=O)[C@@H]1OC(C)=O	-	>10 µM
N#Cc1cc(Cl)cc(Oc2cc(OCc3nc(-c4ccccc4)no3)ccc2Cl)c1	microscopy	>20 µM
Cc1cc(C)cc(S(=O)(=O)c2c(C(N)=O)[nH]c3ccc(Cl)cc23)c1	MTT	12.95 µM

5 of the rows above, restated:

smiles | method | value
N#C[C@]1(CO)O[C@@H](n2cnc3c(=O)[nH]c(N)nc32)C[C@@H]1O | - | >0.034 µM
C=CNc1nc(Nc2ccc(C#N)cc2F)nc(Oc2ccc3ccccc3c2)n1 | - | 229 µM
CNc1nc(Nc2ccc(C#N)cc2F)nc(Oc2ccc3ccccc3c2Br)n1 | - | 98.84 µM
CCc1c(Cc2cc(C)cc(C)c2)n(COCC#Cc2cccc(CO[Si](c3ccccc3)(c3ccccc3)C(C)(C)C)c2)c(=O)[nH]c1=O | MTT | >100 µM
O=C1c2ccccc2N(COCc2ccccc2)S(=O)(=O)N1COCc1ccccc1 | - | 22.3–23.7 µM